Experimental data as given in US9834534B2, “Neuraminidase inhibitor compounds, compositions and methods for the use thereof in anti-viral treatments” (THE UNIVERSITY OF BRITISH COLUMBIA, priority 2009, dated 2017).

Tested on: G70C H1N9 wt
Details: read-out: IC50 G70C H1N9 wt

Row | Compound | IC50
1 | CCOC(=O)C1=C[C@@H](OC(CC)CC)[C@H](NC(C)=O)[C@@H](N)C1 [Oseltamivir] | 2800 nM
2 | CC(=O)N[C@H]1[C@H]([C@H](O)[C@H](O)CO)OC(C(=O)O)=C[C@@H]1N=C(N)N [Zanamivir] | 2700 nM
